Assay results as given in patent US20050240009A1, “T-cell epitopes in staphylococcal enterotoxin b” (published 2005).
Values joined by “and” are separate entries in the source; they are usually repeats but may differ in a detail not shown here. Equal values may be shown once.

System: human T-cells (PBMC from naïve donors)
Settings: for number of reactive donor samples: PBMC from 20 naïve donors; for SI per responsive sample: Stimulation index, mean of triplicate determinations per responsive donor sample, peptides tested at 1uM and 5uM, higher of the two determinations, 7 days

Sequence | number of reactive donor samples | SI per responsive sample
KFTGLMENMKVLYDD | two | –
GLMENMKVLYDDNHV | one | 8.1
ENMKVLYDDNHVSAI | two | 4.4 and 3.1
